Measurements reported in PubChem BioAssay AID504761 (Drosophila RNAi Screening Center, 2011).
The screen tested about 22,000 reagents; below is an unselected part of those with a known target gene and a result. Over the whole deposit, 116 (0.52%) got an active call. 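Calls depend on retest data that are not deposited; infection was ranked per plate without normalising between plates; the unit of the infection score is not given.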 Entries without a mark were called inactive. Names joined by + are all predicted targets of the reagent. Further read-outs or replicates are left out here. Reagent sequences are not shown. The record does not give: the amount of reagent, the time to read-out.

- Purpose: 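Genome-wide fly cell screen for genes dengue virus requires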 (primary screen)
- Cell system: D.Mel-2 cells from Drosophila
- Reagent: long dsRNA against Drosophila genes
- Challenge: infection with dengue virus type 2; dose and infection time not stated
- Measured: 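Cells stained for dengue envelope protein and imaged; percent of infected cells per well on duplicate plates, ranked by infection, with stained nuclei counted for cell number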
- Reading the numbers: infection score: higher = more virus-infected cells
- Hit rule: 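Very low infection ranking in both replicate wells (chance probability at most 0.065), then a retest showing infection dropped 1.5-fold or more at p below 0.05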
- Calls: active = confirmed: knock-down lowers infection; inactive = not picked or not confirmed

With knock-down of CG32189 (GeneID 317902) [DRSC09511], the record shows infection score, replicate 1 = 0.26.
For CG32189 (GeneID 317902) [DRSC26756] the deposit lists infection score, replicate 1 = 2.52.
Depletion of Mur82C (GeneID 40574) [DRSC12011] gave: infection score, replicate 1 = 1.32.
Knock-down of Mur82C (GeneID 40574) [DRSC12212] gave: infection score, replicate 1 = 1.48.
Mur82C (GeneID 40574) [DRSC23420] showed infection score, replicate 1 = 21.3.
Against Stt3A (GeneID 33082) [DRSC20514], the values are infection score, replicate 1 = 2.88.
Against Stt3A (GeneID 33082) [DRSC24884], the values are infection score, replicate 1 = 1.56.
After knock-down of Jig (GeneID 41762) [DRSC14974] the results were infection score, replicate 1 = 6.27.
After knock-down of armi (GeneID 38427) [DRSC08193] the results were infection score, replicate 1 = 3.76.
After knock-down of Tailor (GeneID 40847) [DRSC12526], the record shows infection score, replicate 1 = 2.3.
Depletion of ReepB (GeneID 36569) [DRSC07150] gave: infection score, replicate 1 = 8.55.
Against ReepB (GeneID 36569) [DRSC27133], the values are infection score, replicate 1 = 2.64.
After knock-down of Rcd-1r + CG13102 [DRSC03266] the results were infection score, replicate 1 = 8.33.
Against Gycbeta100B (GeneID 43682) [DRSC14039], the entry reads infection score, replicate 1 = 0.88.
After knock-down of Gycbeta100B (GeneID 43682) [DRSC14040] the results were infection score, replicate 1 = 2.65.
For Gycbeta100B (GeneID 43682) [DRSC16691], the values are infection score, replicate 1 = 1.17.
Depletion of Gycbeta100B (GeneID 43682) [DRSC28797] came out at: infection score, replicate 1 = 16.
After knock-down of CG6659 (GeneID 32854) [DRSC20003] the results were infection score, replicate 1 = 12.3.
Vps37B (GeneID 40624) [DRSC12165] showed infection score, replicate 1 = 1.26.
With knock-down of Gli (GeneID 34927) [DRSC03332] the results were infection score, replicate 1 = 12.
For CG10366 (GeneID 35258) [DRSC02046], the values are infection score, replicate 1 = 46.9.
For CG10366 (GeneID 35258) [DRSC26463], the values are infection score, replicate 1 = 1.29.
